Amino acid sequences for entries named in this document (tags omitted). A change or cut given only in a name is not applied to a line headed by its entry.
UniProt P0DOV5: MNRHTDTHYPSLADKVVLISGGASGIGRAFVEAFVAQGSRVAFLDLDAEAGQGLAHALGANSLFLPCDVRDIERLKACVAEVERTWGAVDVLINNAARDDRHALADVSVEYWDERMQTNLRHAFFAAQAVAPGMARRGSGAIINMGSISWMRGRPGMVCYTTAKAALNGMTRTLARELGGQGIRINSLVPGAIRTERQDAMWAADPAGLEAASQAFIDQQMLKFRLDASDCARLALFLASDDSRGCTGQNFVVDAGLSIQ

In article PMC12133307, “Structure, kinetics, and mechanism of Pseudomonas putida sulfoquinovose dehydrogenase, the first enzyme in the sulfoglycolytic Entner-Doudoroff pathway” (Biochemical Journal, 2025):

How the values were obtained:
[1] = biological target: T1, PpSQDH (P. putida SQ dehydrogenase; PpSQ1_00090) (Pseudomonas putida, UniProt P0DOV5); conditions: 0.30 mM NAD+, 0.48 mM enzyme, 50 mM tricine pH 8.5, 150 mM NaCl; no saturation at 16-200 mM
T1 construct: gene PpSQ1_00405

[2] = biological target: T1, PpSQDH (P. putida SQ dehydrogenase; PpSQ1_00090); conditions: competitive with NAD+; varied SQ or NAD+, 50 mM tricine pH 8.5, 150 mM NaCl

SMILES | NADH formation at 340 nm, UV-vis [1] | product inhibition, NADH absorbance at 340 nm, double reciprocal plots [2]
O=P(O)(O)OC[C@H]1OC(O)[C@H](O)[C@@H](O)[C@@H]1O (some centres unmarked) [G6P, glucose-6-phosphate] | we could detect a low rate of reaction in the presence of the preferred cofactor | –
NC(=O)C1=CN([C@@H]2O[C@H](COP(=O)(O)OP(=O)(O)OC[C@H]3O[C@@H](n4cnc5c(N)ncnc54)[C@H](O)[C@@H]3O)[C@@H](O)[C@H]2O)C=CC1 [NADH] | – | consistent with NADH acting as a competitive inhibitor for NAD^+
